Values of other authors, collected in patent US12115222B2, “Compositions and methods for improving the solubility of erectile dysfunction therapeutics” (Villya LLC, priority 2023, dated 2024).

Details: from the US FDA; cited from earlier work

CC1=CC(=O)NS(=O)(=O)O1 [Acesulfame Potassium (Ace-K)]
Times Sweeter than Sucrose: 200

COC(=O)[C@H](Cc1ccccc1)NC(=O)[C@H](CC(=O)O)NCCCc1ccc(OC)c(O)c1 [Advantame ®, N—[N-[3-(3-hydroxy-4-methoxyphenyl)propyl]-α-aspartyl]-L-phenylalanine-1-methyl ester]
Times Sweeter than Sucrose: 20,000

COC(=O)[C@H](Cc1ccccc1)NC(=O)[C@@H](N)CC(=O)O [Aspartame, L-aspartyl-L-phenylalanine methyl ester] (H-Asp-Phe-OMe)
Times Sweeter than Sucrose: 200

COC(=O)[C@H](Cc1ccccc1)NC(=O)[C@H](CC(=O)O)NCCC(C)(C)C [Neotame ®]
Times Sweeter than Sucrose: 7,000-13,000

OC[C@H]1O[C@H](O[C@]2(CCl)O[C@H](CCl)[C@@H](O)[C@@H]2O)[C@H](O)[C@@H](O)[C@H]1Cl [sucralose, 1,6-dichloro-1,6-dideoxy-β-D-fructofuranosyl-4-chloro-4-deoxy-α-D-galactopyranoside]
Times Sweeter than Sucrose: 600

Where a SMILES comes first, the peptide text is derived from it.
